The values below are quoted from earlier work in publication PMC6153800, “Structure-Based Drug Design and Characterization of Sulfonyl-Piperazine Benzothiazinone Inhibitors of DprE1 from Mycobacterium tuberculosis” (Antimicrobial Agents and Chemotherapy, 2018).

Sequences of proteins named here, by UniProt entry; tags and fusion partners are left off.
UniProt P9WJF1, whole entry C387S: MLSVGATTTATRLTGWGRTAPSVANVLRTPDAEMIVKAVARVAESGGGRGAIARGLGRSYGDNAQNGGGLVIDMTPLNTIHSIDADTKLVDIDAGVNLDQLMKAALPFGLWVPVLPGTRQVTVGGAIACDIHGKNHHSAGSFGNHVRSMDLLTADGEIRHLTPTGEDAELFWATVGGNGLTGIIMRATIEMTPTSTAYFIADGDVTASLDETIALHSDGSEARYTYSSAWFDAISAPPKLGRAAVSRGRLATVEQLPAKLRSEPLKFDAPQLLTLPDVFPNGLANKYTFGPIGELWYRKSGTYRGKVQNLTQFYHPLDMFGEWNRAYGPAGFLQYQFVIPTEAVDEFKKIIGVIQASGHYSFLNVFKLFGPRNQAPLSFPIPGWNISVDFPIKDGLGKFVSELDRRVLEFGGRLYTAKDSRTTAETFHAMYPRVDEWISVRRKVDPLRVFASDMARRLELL

Each structure is given as a SMILES string.

For this data set, the target named is BTZ-resistant M. tuberculosis C387S DprE1 (Mycobacterium tuberculosis, UniProt P9WJF1, C387S). The following applies: read-out: IC50 C387S DprE1; BTZ-resistant C387S mutant enzyme; ref (1) Foo et al. 2016; cited from earlier work.

As for `COc1ccc(CNc2nc3cc(C(F)(F)F)ccc3nc2C(=O)O)cc1`, the IC50 was 200 nM.
